# Measured values taken from article PMC9673142, “1,3-Diarylpyrazolyl-acylsulfonamides Target HadAB/BC Complex in Mycobacterium tuberculosis” (ACS Infectious Diseases, 2022).
# Tests used:
# [1] = tested on: Mtb/pNIP40b-hadABC; test: microbe, parasite or virus in culture; assay type: cell-based; conditions: Mycobacterium tuberculosis, read-out: MIC Mtb/pNIP40b-hadABC
# [2] = tested on: compound 1-resistant Mtb mutants (SRM59, Rv0637/hadC:K157R); assay type: cell-based, Mycobacterium tuberculosis
structure (smiles),measurement,setting,value
CS(=O)(=O)NC(=O)NCc1cc(-c2ccc(Br)cc2)oc1-c1ccncc1 [Compound 14],MIC,[1],15 µM
CS(=O)(=O)NC(=O)CCc1cn(-c2ccc(Br)cc2)nc1-c1ccncc1 [Compound 1],MIC against resistant colonies (seven out of 10 selected colonies),[2],50 to 100 µM
